Results of unrelated studies side by side (data: NIAID ChemDB).

Common to all: tests in culture

Blank or dashed fields: not listed here.

compound	organism	strain or isolate	changes	cells	method	measure	tested at	result
O=C1Nc2ccc(F)c(F)c2[C@@](/C=C/C2CC2)(C(F)(F)F)N1	HIV-1	-	RT-Y188L	-	-	EC90	-	~0.115 µM
CC[C@H]1OC(=O)[C@H](C)[C@@H](O[C@H]2C[C@@](C)(OC)[C@@H](OC(C)=O)[C@H](C)O2)[C@H](C)[C@@H](O[C@@H]2O[C@H](C)C[C@H](N(C)C)[C@H]2OC(=O)NNCc2ccccc2)C(C)(O)C[C@@H](C)/C(=N\OCCCC2CCCCC2)[C@H](C)[C@@H](O)[C@]1(C)O	Mycobacterium avium complex	20039 (clarithromycin-susceptible)	-	-	-	MIC	-	0.78 µg/mL
CCn1nc(-c2ccc(Cn3ccc4ccccc43)cc2)nc1C	Respiratory syncytial virus	-	-	-	-	MIC	-	80 µg/mL
NC(=NC1CCCC1)c1ccc(-c2ccc(-c3ccc(C(N)=NC4CCCC4)cc3)o2)cc1	Candida albicans	ATCC 76615	-	-	-	MFC	-	50 µg/mL
Oc1ccc(O)c(C=Nc2ccccc2O)c1	Cryptococcus neoformans	VM-MCMMPI	-	-	-	MIC99	-	8 µg/mL
Nc1nc2c(ccn2[C@@H]2C[C@H](CO)[C@@H](O)[C@@H]2O)c(=O)[nH]1	Parainfluenza virus	-	-	-	-	MIC	-	>100 µg/mL
CC1CCC(C(=O)N(c2cc(C#CC(C)(C)C)sc2C(=O)O)C2CCC(O)CC2)CC1	Hepatitis C virus	Con1 (gt 1b)	M423V	Huh7	luciferase	fold resistance	-	18
Brc1ccc(Cn2ccc3nc(-c4ccccc4)nc-3c2)cc1	Bovine viral diarrhea virus	PE515 (TYPE 1)	-	MDBK	ELISA	EC50	-	0.1 µM
CC(C)(C)OC(=O)Nc1ccc2c(c1)Cc1cc(NC(N)=S)ccc1-2	Hepatitis C virus	-	-	Ava5-EG(delta4AB)SEAP	reporter gene / fluorescence	EC50	-	0.001–1 µM
CCn1nc(CC(=O)NN=C(C)C)nc1C	Respiratory syncytial virus	-	-	-	-	MIC	-	>400 µg/mL
CCCO/N=C1\[C@H](C)CC(C)(O)[C@H](O[C@@H]2O[C@H](C)C[C@H](N(C)C)[C@H]2O)[C@@H](C)[C@H](O[C@H]2C[C@@](C)(OC)[C@@H](OC(C)=O)[C@H](C)O2)[C@@H](C)C(=O)O[C@H](CC)[C@@](C)(O)[C@H](O)[C@H]1C	Mycobacterium avium complex	20092 (clarithromycin-resistant)	-	-	-	MIC	-	>50 µg/mL
Cc1ccc2c(c1)C(C1SCC(=O)N1NC(=O)N1c3ccccc3C=Cc3ccccc31)C(c1ccccc1)=N2	Aspergillus oryzae	MTCC-3567	-	-	agar diffusion	zone	1000 µg/mL	5 mm
O=[N+]([O-])c1ccc(C=Nc2ccccc2O)cc1	Cryptococcus neoformans	LMM 820	-	-	-	MIC99	-	16 µg/mL
NC(=S)Nc1ccc(OCCCCCOc2ccc(F)cc2F)cc1	Hepatitis C virus	-	-	Ava5-EG(delta4AB)SEAP	reporter gene / fluorescence	EC50	-	0.001–1 µM
CC[C@H]1OC(=O)[C@H](C)[C@@H](OC2C[C@@](C)(OC)[C@@H](OC(=O)C(C)C)[C@H](C)O2)[C@H](C)[C@@H](O[C@@H]2O[C@H](C)C[C@H](N(C)C)[C@H]2O)C(C)(O)C[C@@H](C)/C(=N\OCCCOc2ccccc2)[C@H](C)[C@@H](O)[C@]1(C)O	Mycobacterium avium complex	20096 (clarithromycin-resistant)	-	-	-	MIC	-	0.78 µg/mL
O=C1[C@@H](Cc2ccccc2)NC(=S)N1Cc1ccccc1	HIV-2	-	-	MT-4	RT activity	inhibition	1 µg/mL	1%
Cn1cc(C(=O)NCc2ccc(Cl)cc2)c(=O)c2cc(CN3CCOCC3)ccc21	Herpes simplex virus 2	MS (WILD TYPE)	-	HFF	plaque count	EC50	-	2.6 µM
CCCCCCCCCCCCC(=O)O[C@H]1[C@H](C)OC(O[C@H]2[C@H](C)[C@@H](O[C@@H]3O[C@H](C)C[C@H](N(C)C)[C@H]3O)C(C)(O)C[C@@H](C)/C(=N\OCCCOc3ccccc3)[C@H](C)[C@@H](O)[C@](C)(O)[C@@H](CC)OC(=O)[C@@H]2C)C[C@@]1(C)OC	Mycobacterium avium complex	20096 (clarithromycin-resistant)	-	-	-	MIC	-	>50 µg/mL
O=C(NCc1ccc(Cl)cc1)c1cn2c3c(cc(CN4CCOCC4)cc3c1=O)OC(c1cccnc1)C2	Herpes simplex virus 2	SR (WILD TYPE)	-	HFF	plaque count	EC50	-	10.8 µM
CCCCN1C(=O)[C@@H](Cc2ccccc2)NC1=S	HIV-2	-	-	MT-4	cytopathic effect / XTT	inhibition	1 µg/mL	20%
CCCCCCCCCCCCOC(=O)[C@]1(O)C[C@@H](O)[C@@H](O)[C@H](OC(=O)/C=C/c2ccc(O)c(O)c2)C1	Aspergillus westerdijkiae	CBS 112803	-	-	absorbance	MIC50	-	2400 µM
Cc1nc(NC(=O)NCCc2ccccc2)sc1C	HIV-2	-	-	MT-4	RT activity	inhibition	1 µg/mL	92%
O=C1Nc2ccc(Cl)cc2[C@@](C#CC2CC2)(C(F)(F)F)N1	HIV-1	-	RT-K103N Y181C	-	-	EC90	-	~0.025 µM
CCCCCCCCCCCCO/N=C1\[C@H](C)CC(C)(O)[C@H](O[C@@H]2O[C@H](C)C[C@H](N(C)C)[C@H]2O)[C@@H](C)[C@H](O[C@H]2C[C@@](C)(OC)[C@@H](OC(C)=O)[C@H](C)O2)[C@@H](C)C(=O)O[C@H](CC)[C@@](C)(O)[C@H](O)[C@H]1C	Mycobacterium avium complex	20092 (clarithromycin-resistant)	-	-	-	MIC	-	6.25 µg/mL
Cc1ccnc(NC(=O)NCCc2ccccc2)n1	HIV-2	-	-	MT-4	RT activity	inhibition	1 µg/mL	0%
CCOC(=O)c1c(C)nc(NCCCCNc2ccnc3cc(Cl)ccc23)nc1-c1ccccc1	Cryptococcus gattii	L-28/02	-	-	-	MIC99	-	8 µg/mL
O=C(NN1C(=O)CSC1C1C(c2ccccc2)=Nc2ccc(Cl)cc21)N1c2ccccc2C=Cc2ccccc21	Aspergillus terreus	MTCC-1782	-	-	agar diffusion	zone	750 µg/mL	13 mm
NNC(=O)Cc1nc2n(n1)CCCCC2	Respiratory syncytial virus	-	-	-	-	MIC	-	>400 µg/mL
Nc1nc2c(ncn2COC(CO)CO)c(=O)[nH]1	Cytomegalovirus	-	-	HEL	-	inhibition	1 µM	97%
CCCCCCCCCCCCC(=O)O[C@H]1[C@H](C)[C@@H](O[C@@H]2O[C@H](C)C[C@H](N(C)C)[C@H]2O)C(C)(O)C[C@@H](C)/C(=N\OCCCOc2ccccc2)[C@H](C)[C@@H](O)[C@](C)(O)[C@@H](CC)OC(=O)[C@@H]1C	Mycobacterium avium complex	20039 (clarithromycin-susceptible)	-	-	-	MIC	-	>50 µg/mL
C=CCc1ccc(O)c(OC)c1	Candida glabrata	2621	-	-	turbidity	MIC90	-	500 µg/mL
COc1ccc(-n2c(Cc3nc4n(n3)CCCC4)n[nH]c2=S)cc1	Respiratory syncytial virus	-	-	-	-	MIC	-	80 µg/mL
CCOC(=O)c1c(C)nc(NCCCCNc2ccnc3cc(Cl)ccc23)nc1-c1ccccc1[N+](=O)[O-]	Cryptococcus gattii	23/10993	-	-	-	MIC99	-	5.7 µg/mL
O=C(NN1C(=O)CSC1C1C(c2ccccc2)=Nc2ccccc21)N1c2ccccc2C=Cc2ccccc21	Aspergillus oryzae	MTCC-3567	-	-	agar diffusion	zone	1000 µg/mL	13 mm
S=C(NCCc1ccccc1)Nc1ccc2c(c1)Cc1cc(Br)ccc1-2	Hepatitis C virus	-	-	Ava5-EG(delta4AB)SEAP	reporter gene / fluorescence	EC50	-	0.001–1 µM
O=C(NCCc1ccccc1)Nc1nc2ccc(Cl)cc2s1	HIV-2	-	-	MT-4	RT activity	inhibition	10 µg/mL	98%
Oc1ccccc1N=Cc1ccccc1	Cryptococcus neoformans	ATCC 62066	-	-	-	MIC99	-	2 µg/mL
CCCCNC(=S)Nc1ccc2c(c1)Cc1cc(Br)ccc1-2	Hepatitis C virus	-	-	Ava5-EG(delta4AB)SEAP	reporter gene / fluorescence	EC50	-	0.001–1 µM
O=C(NCCc1ccccc1)Nc1nc(C(F)(F)F)cs1	HIV-2	-	-	MT-4	cytopathic effect / XTT	inhibition	1 µg/mL	100%
CO[C@H]1/C=C/O[C@@]2(C)Oc3c(C)c(O)c4c(O)c(c(/C=N/N5CCN(C6CCCC6)CC5)c(O)c4c3C2=O)NC(=O)/C(C)=C\C=C\[C@H](C)[C@H](O)[C@@H](C)[C@@H](O)[C@@H](C)[C@H](OC(C)=O)[C@@H]1C	Mycobacterium avium intracellulare	16-Feb	-	-	-	MIC	-	0.5 µg/mL
CCCCNNC(=O)O[C@H]1[C@H](O[C@@H]2[C@@H](C)[C@H](O[C@H]3C[C@@](C)(OC)[C@@H](OC(C)=O)[C@H](C)O3)[C@@H](C)C(=O)O[C@H](CC)[C@@](C)(O)[C@H](O)[C@@H](C)/C(=N/OCCCC3CCCCC3)[C@H](C)CC2(C)O)O[C@H](C)C[C@@H]1N(C)C	Mycobacterium avium complex	20092 (clarithromycin-resistant)	-	-	-	MIC	-	0.78 µg/mL
N#Cc1csc(NC(=O)NCCc2ccccc2)n1	HIV-2	-	-	MT-4	cytopathic effect / XTT	inhibition	0.1 µg/mL	74%
CCn1nc(CC(=O)N/N=C/c2ccco2)nc1C	Parainfluenza virus	TYPE 3	-	-	-	MIC	-	>80 µg/mL
Oc1ccccc1C=Nc1ccccc1O	Cryptococcus neoformans	ATCC 28957	-	-	-	MIC99	-	4 µg/mL
Cc1nc(CC(=O)NN)nn1C	Punta Toro virus	-	-	-	-	MIC	-	>80 µg/mL
O=C(O)P(=O)(O)O	Cytomegalovirus	209	-	MRC-5	-	EC50	-	108.5 µM
CCCCCCCCC(=O)O[C@H]1[C@H](C)OC(O[C@H]2[C@H](C)[C@@H](O[C@@H]3O[C@H](C)C[C@H](N(C)C)[C@H]3O)C(C)(O)C[C@@H](C)/C(=N\OCCCOc3ccccc3)[C@H](C)[C@@H](O)[C@](C)(O)[C@@H](CC)OC(=O)[C@@H]2C)C[C@@]1(C)OC	Mycobacterium avium complex	20039 (clarithromycin-susceptible)	-	-	-	MIC	-	0.78 µg/mL

The last 4 rows once more:

compound	organism	strain or isolate	changes	cells	method	measure	tested at	result
Oc1ccccc1C=Nc1ccccc1O	Cryptococcus neoformans	ATCC 28957	-	-	-	MIC99	-	4 µg/mL
Cc1nc(CC(=O)NN)nn1C	Punta Toro virus	-	-	-	-	MIC	-	>80 µg/mL
O=C(O)P(=O)(O)O	Cytomegalovirus	209	-	MRC-5	-	EC50	-	108.5 µM
CCCCCCCCC(=O)O[C@H]1[C@H](C)OC(O[C@H]2[C@H](C)[C@@H](O[C@@H]3O[C@H](C)C[C@H](N(C)C)[C@H]3O)C(C)(O)C[C@@H](C)/C(=N\OCCCOc3ccccc3)[C@H](C)[C@@H](O)[C@](C)(O)[C@@H](CC)OC(=O)[C@@H]2C)C[C@@]1(C)OC	Mycobacterium avium complex	20039 (clarithromycin-susceptible)	-	-	-	MIC	-	0.78 µg/mL

Fold resistance: result on the changed form divided by that on wild type. Percent inhibition refers to the dose given; in toxicity tests it is the harm to the cells. Lines come from different laboratories, so protocols vary. Zone: diameter of growth inhibition. ECn: concentration that inhibits the pathogen or its effect by n%. Two numbers with a dash give a range or band. MIC50, MIC90 and the like: level of inhibition, or share of isolates inhibited.